Experimental data: PMC3089043, “The role of C-terminus carbohydrate-binding domain of Vibrio cholerae haemolysin/cytolysin in the conversion of the pre-pore β-barrel oligomer to a functional diffusion channel” (2011)

Target: 50 kDa truncated variant of VCC lacking the β-prism lectin domain (VCC50) (Vibrio cholerae non-O1 strain V2)
Assay: SDS-PAGE of oligomers

“50 kDa truncated variant of VCC lacking the β-prism lectin domain (VCC50) (domain or fragment)” showed a stoichiometry N of 7.
